The source of these data is patent US20050079180A1, “Manipulatin of oocyte maturation and male germ cell survival” (priority 2003, published 2005).

The assay concerns testis. It counts as in vivo, rat. Particulars: co-treatment with GnRH antagonist, five days; FIG. 4A. The procedure:
FIGS. 4A-D. Treatment with hCG increased INLS3 expression whereas treatment with INSL3 suppressed testis germ cell apoptosis induced by a GnRH antagonist. A) Changes in testis and other organ weights following treatment with the GnRH antagonist with or without INSL3 or hCG. Immature rats at 28 days of age were treated daily with a GnRH antagonist (AN; Antagon, 25 μg/day) with or without hCG (75 IU/day) or synthetic rat INSL3 (2 μg, twice daily) for five days before organ removal. B) Northern blot analyses of testis INSL3 mRNA levels in rats treated with the GnRH antagonist with or without hCG. C) Analysis of apoptotic DNA fragmentation in testes using 3′-end DNA labeling with the terminal transferase, followed by gel fractionation and autoradiography. D) In situ staining of apoptotic DNA fragmentation in seminiferous tubules using the TUNNEL method. Positive signals are evident in some primary spermatocytes in control animals (panel d, light arrows) whereas treatment with the GnRH antagonist (AN) led to additional signals in meiotic germ cells (panel e, heavy arrows).
Male Sprague-Dawley rats at 28 days of age were treated subcutaneously with GnRH antagonist (250 μg/kg/day) to suppress pituitary gonadotropin secretion. […] Animals were killed 5 days after initial treatment and organ weight determined. […]

As to “hCG: an agonist of LH; from A.P.L, Ayerst Laboratories”, the “effect on testis weight decrease caused by GnRH antagonist” value is reported as “partially blocked”.
